Experimental findings from PMC7327168 are described below.

The chains behind the UniProt entries cited, without tags or fusion partners.
UniProt P45684, whole entry: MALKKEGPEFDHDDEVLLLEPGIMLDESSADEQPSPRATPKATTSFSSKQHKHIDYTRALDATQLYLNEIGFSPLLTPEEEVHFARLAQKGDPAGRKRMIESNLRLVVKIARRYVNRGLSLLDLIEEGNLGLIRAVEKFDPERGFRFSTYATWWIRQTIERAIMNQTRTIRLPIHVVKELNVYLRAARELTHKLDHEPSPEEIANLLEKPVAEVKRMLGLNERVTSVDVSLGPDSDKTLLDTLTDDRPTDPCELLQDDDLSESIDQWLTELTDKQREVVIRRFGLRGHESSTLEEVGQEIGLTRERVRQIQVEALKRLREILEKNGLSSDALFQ

For at least one entry, the source does not settle the construct or the ends of the probe.

For this data set, the target named is RpoS (UniProt P45684). Nature of the data set: EMSA. The following applies: 100 ng DNA, 30 min; RNA EMSA: 10 mM Tris-HCl pH 7.5, 5 mM MgCl2, 50 mM KCl, 10% glycerol, 1 U RNase inhibitor, on ice 30 min, 8% native PAGE 0.5x TBE; recombinant protein; protein details: 6xHis; probe letters rebuilt from the primers and the genome.

For “GCCTGCGAGCGGTAGTCTGATCGGCCGTTTTGCCTCAAACGGAAGTTTGAATAAAGGGATTGATATAGCCGGTCAATTGGGCCAGCCTGTCCTGGCTGCGTCTGGTGGGACCGTTGTATACGCCGGTAGTGGTTTGCGGGGCTACGGCGAGTTGGTCATCATCAAACACAACGAGACCTACGTGAGTGCCTACGGTCACAACCGCAGGCTGCTGGTGCGGGAAGGGCAACAGGTCAAGGTAGGGCAATCGATTGCCGAGATGGGCTCCACAGGAACCGATCGGGTGAAGCTGCACTTCGAGATTCGCCGCCAGGGTAAGCCTGTCGATCCACTGCAATATTTGCCACGTCGCTGACCGGGAGTTCGCCCGCCCACATCATGTAGGTGAGCGGGTCCGGGCGTGTCCAGCGGGAAAGGAATCGCCCGGGCTTGAGTCGAACTCATGCAAGGGATAACGACATGGCACTCAAAAAAGAAGGGCCGGAGTTTGACCACGATGATGAAGTGCTCCTCCTGGAGCCCGGCATCATGCTGGACGAGT (double strand) [Pro-rpoS (rpoS promoter fragment)]”, the binding result is “binds”.
